Results: patent US9958439B2, “Carbohydrate detection” (RICHTER LIFE SCIENCE DEVELOPMENT AB, priority 2012, dated 2018)
Like-named read-outs stand apart in the source and are kept apart here.

Columns and labels:
[1] = Excitation 300-500, Emission 545
Description: (§1) The excitation spectrum of the probe was analyzed for wavelengths 300-500 nm with emission read at 545 nm.
(§2) 3 μM of each probe was applied to serial two fold dilutions of the insoluble carbohydrate. Respective probes were excited at wavelengths unique to each probe (specified in figure), and emission was read at 545 nm.
(§3) Serial dilutions of carbohydrate suspensions were prepared in dH2O. Concentrations ranging from 10 to 0.039 mg/ml was used for β-1,3-glucan, cellulose and chitin, whereas 5 to 0.019 mg/ml was used for sodium alginate, glucose, amylose, glycogen, cellulobiose, heparin, chondroitin sulfate A. 3 μM of each LCO probe was added to 1 ml aliquots of each concentration of carbohydrate, after which 100 μl was dispensed in triplicates into 96 well plates. Excitation spectra were collected by exciting the sample from 300 to 500 nm and detecting emission at 545 nm. Detection of carbohydrate is concluded when there is a reproducible change in λmax and/or RFU intensity with reference to the negative control. Data from three concentrations, as well as the negative control are shown for each carbohydrate as specified in respective figure.
(§4) The excitation wavelength (emission detected at 545 nm) selected for each LCO is either (1) the λmax, or (2) the excitation wavelength which suffers the lowest background. A linear regression analysis is performed to determine the relationship between the carbohydrate concentration and RFU.

[2] = Excitation 300-500, Emission 545; remark: listed apart in the source
Description: (§5) 3 μM of each probe was applied to serial two fold dilutions of the carbohydrate of which the concentration shown here are 5 mg/ml (_.), 2.5 mg/ml (. . . ), 1.25 mg/ml (__) and 0 mg/ml (_). The excitation spectrum of the probe was analyzed for wavelengths 300-500 nm with emission read at 545 nm.
(§6) 3 μM of each probe was applied to serial two fold dilutions of the carbohydrate. Respective probes were excited at wavelengths unique to each probe (specified in figure), and emission was read at 545 nm.
as §3, §4

[3] = Excitation 300-500, Emission 545; remark: listed apart in the source
Description: (§7) 3 μM of each probe was applied to serial two fold dilutions of the carbohydrate of which the concentration shown here are 5 mg/ml (_.), 2.5 mg/ml (. . . ) 1.25 mg/ml (__) and 0 mg/ml (_). The excitation spectrum of the probe was analyzed for wavelengths 300-500 nm with emission read at 545 nm.
as §6, §3, §4

[4] = Excitation 300-500, Emission 545; for λmax-Bound: probe with sodium alginate; for λmax-Unbound: probe without sodium alginate
Description: as §5, with “of the insoluble carbohydrate of” for “of the carbohydrate of”
as §2, §3, §4

[5] = Excitation 300-500, Emission 545; for λmax-Bound: probe with Chondroitin Sulfate A; for λmax-Unbound: probe without Chondroitin Sulfate A
Description: as §1, §6, §3, §4

[6] = Excitation 300-500, Emission 545; for λmax-Bound: probe with glucose; for λmax-Unbound: probe without glucose
Description: as §7
3 μM of each probe was applied to serial two fold dilutions of the carbohydrate. Respective probes were excited at wavelengths unique to each probe (specified in figure), and emission was read at 545 nm. […] The mean increase in signal (_) with [Glucose] and the fitted regression line (__) is shown.
as §3, §4

`O=C([O-])C[C@H](NC(=O)Cc1cc(-c2cccs2)sc1-c1ccc(-c2sc(-c3cccs3)cc2CC(=O)N[C@@H](CC(=O)[O-])C(=O)[O-])s1)C(=O)[O-].[Na+].[Na+].[Na+].[Na+]` [pHTA-Asp, penta Hydrogen Thiophene Acetic acid Aspartic acid] gave a λmax-Bound ([1]; probe with chitin) of 443 nm and a λmax-Bound ([2]; probe with glycogen) of 400 nm.

Molecule `Cl.Cl.c1csc(-c2cc(CCn3ccnc3)c(-c3ccc(-c4sc(-c5cccs5)cc4CCn4ccnc4)s3)s2)c1` [pHTIm, penta Hydrogen Thiophene Imidazole] has a λmax-Bound ([3]; probe with amylose) of 382 nm, a λmax-Bound ([3]; probe with cellulobiose) of 390 nm and a λmax-Unbound ([3]; probe without amylose) of 392 nm. It also gave a λmax-Unbound ([3]; probe without cellulobiose) of 390 nm, a λmax-Bound [4] of 409 nm and a λmax-Unbound [4] of 399 nm. It also gave a λmax-Bound ([1]; probe with cellulose) of 444 nm, a λmax-Bound ([1]; probe with chitin) of 400 nm and a λmax-Bound ([1]; probe with β-1,3-glucan) of 402 nm. For the same molecule, the λmax-Unbound ([1]; probe without cellulose) was 390 nm, the λmax-Unbound ([1]; probe without chitin) was 390 nm and the λmax-Unbound ([1]; probe without β-1,3-glucan) was 391 nm. For the same molecule, the λmax-Bound ([2]; probe with glycogen) was 411 nm, the λmax-Bound ([2]; probe with heparin) was 392 nm and the λmax-Unbound ([2]; probe without glycogen) was 389 nm. For the same molecule, the λmax-Unbound ([2]; probe without heparin) was 392 nm, the λmax-Bound [5] was 424 nm and the λmax-Unbound [5] was 408 nm. The λmax-Bound [6] was 390 nm and the λmax-Unbound [6] was 390 nm.

With `Cl.Cl.NCCc1cc(-c2cccs2)sc1-c1ccc(-c2sc(-c3cccs3)cc2CCN)s1` [pHTEA, penta Hydrogen Thiophene Ethanol Amine] the λmax-Bound ([3]; probe with amylose) was 388 nm, the λmax-Bound ([3]; probe with cellulobiose) was 387 nm and the λmax-Unbound ([3]; probe without amylose) was 388 nm. For the same molecule, the λmax-Unbound ([3]; probe without cellulobiose) was 387 nm, the λmax-Bound [4] was 409 nm and the λmax-Unbound [4] was 396 nm. For the same molecule, the λmax-Bound ([1]; probe with cellulose) was 444 nm, the λmax-Bound ([1]; probe with chitin) was 397 nm and the λmax-Bound ([1]; probe with β-1,3-glucan) was 408 nm. For the same molecule, the λmax-Unbound ([1]; probe without cellulose) was 386 nm, the λmax-Unbound ([1]; probe without chitin) was 387 nm and the λmax-Unbound ([1]; probe without β-1,3-glucan) was 387 nm. It also gave a λmax-Bound ([2]; probe with glycogen) of 411 nm, a λmax-Bound ([2]; probe with heparin) of 403 nm and a λmax-Unbound ([2]; probe without glycogen) of 389 nm. For the same molecule, the λmax-Unbound ([2]; probe without heparin) was 395 nm, the λmax-Bound [5] was 438 nm and the λmax-Unbound [5] was 408 nm. For the same molecule, the λmax-Bound [6] was 387 nm and the λmax-Unbound [6] was 387 nm.

In the case of `Cl.Cl.O=C(Cc1cc(-c2cccs2)sc1-c1ccc(-c2sc(-c3cccs3)cc2CC(=O)NCCc2c[nH]cn2)s1)NCCc1c[nH]cn1` [pHTA-His, penta Hydrogen Thiophene Acetic acid Histidine], the λmax-Bound ([3]; probe with amylose) is reported as 385 nm, the λmax-Bound ([1]; probe with cellulose) is reported as 444 nm and the λmax-Bound ([1]; probe with chitin) is reported as 412 nm. The λmax-Bound [5] was 390 nm.

Molecule `O=C([O-])CC[C@H](NC(=O)Cc1cc(-c2cccs2)sc1-c1ccc(-c2sc(-c3cccs3)cc2CC(=O)N[C@@H](CCC(=O)[O-])C(=O)[O-])s1)C(=O)[O-].[Na+].[Na+].[Na+].[Na+]` [pHTA-Glu, penta Hydrogen Thiophene Acetic acid Glutamic acid] has a λmax-Bound ([1]; probe with chitin) of 435 nm and a λmax-Bound ([2]; probe with glycogen) of 403 nm.
